Measured values from article PMC6118392, “VapC proteins from Mycobacterium tuberculosis share ribonuclease sequence specificity but differ in regulation and toxicity” (PLoS ONE, 2018).
Construct, isoform or probe ends are uncertain for at least one entry. At least one verdict was read from the data and is not stated in words by the source.

Tested on: VapB29 + VapC29
Test: competition with a labelled probe
Conditions: recombinant protein; protein details: C-terminal His; label: 3' DIG-ddUTP

Sequence: GGTGAGCGTCGGCGCGCGCATCACGATGCAGCGATGTTAGGATGAGGCGG (double strand) [Oligo 5 (50 bp vapBC29 promoter, control)]
- binding result: binds
